Data from patent US20220000976A1 (priority 2018, published 2022).
Where a name gives a salt, the structure may show the parent alone.

Test system: ROR-γt+ Treg cells
Conditions: I3S 100 mg/kg in PBS intraperitoneally once weekly, OVA/SEB sensitization once weekly for 8 weeks

For `O=S(=O)(O)Oc1c[nH]c2ccccc12` [I3S, Indoxyl sulfate], the “ROR-γt+ staining in CD4+Foxp3+ Treg cells vs sham treatment” value was “statistically significant increase”.
